Experimental data taken from publication PMC11279160 (Microorganisms, 2024).

Tests used:
Format in all cases: cell-based, Leishmania (Leishmania) amazonensis
[1] = test system: L. (L.) amazonensis promastigotes; experiment: Growth inhibition of promastigotes, MTT assay, 72 h; conditions: for Promastigotes SI J774A.1: SI = CC50 (J774A.1)/IC50; for Promastigotes SI VERO: SI = CC50 (VERO)/IC50
Procedure: (§1) The species Leishmania (Leishmania) amazonensis (IFLA/BR/67/PH8) was maintained in promastigote form at a temperature of 26 °C in a biochemical oxygen demand incubator (BOD) (Eletrolab EL202, São Paulo, Brazil) and in complete Schneider medium (20% heat-inactivated fetal bovine serum (FBS), and 1% antibiotic solution). The L. (L.) amazonensis axenic amastigote forms were obtained through the differentiation of infective promastigote forms using Schneider medium supplemented with 5% FBS, pH 4.6, at a temperature of 32 °C. Parasite growth was observed daily and, if necessary, weekly repeats were performed.
(§2) Promastigote forms or axenic amastigotes in an exponential growth phase were cultured in 96-well plates with complete Schneider’s medium, at 1 × 10^6 parasites/mL. […] The plates were incubated for 72 h under a BOD at 26 °C to prepare promastigotes and 32 °C to prepare amastigotes. When ready, 10 μL of MTT (5 mg/mL) was added to all wells (with the exception of the blank) with an incubation for 4 h. Subsequently, 50 μL of SDS solution (dodecyl sodium sulfate) at 10% was added to dissolve the formazan crystals, and a spectrophotometric reading was then performed (Biotek model ELx800, Winooski, VT, USA) at 540 nm. Schneider medium with 0.5% DMSO was used, considering a 0% growth inhibition for the negative control.

[2] = test system: L. (L.) amazonensis axenic amastigotes; experiment: Growth inhibition of axenic amastigotes, MTT assay, 72 h
Procedure: as §1, §2

[3] = test system: L. (L.) amazonensis intracellular amastigotes; experiment: Activity against intramacrophageal amastigotes in infected J774A.1 macrophages; conditions: for Intracellular Amastigotes SI J774A.1: SI = CC50 (J774A.1)/EC50; for Intracellular Amastigotes SI VERO: SI = CC50 (VERO)/EC50
Procedure: Macrophages were added to 24-well culture plates containing complete RPMI medium and sterile 13 mm coverslips, 1 × 10^5 J774A.1, and for cell adhesion incubated at 37 °C and 5% CO2 for 3 h. The medium was then removed, and three washes with PBS at 37 °C to remove non-adherent cells were performed. New medium, together with metacyclic promastigote forms in a proportion of 10 promastigotes/macrophage, was then added to the wells for infection and then incubated for another 4 h at 37 °C and 5% of CO2. The medium was then removed again and the plate washed with PBS to remove non-internalized […]. […] Subsequently, the coverslips were removed, stained with a quick panoptic kit, and mounted with Entelan®. In each coverslip, 300 macrophages were counted, together with the number of internalized amastigotes through optical microscopy at 1000× magnification. For the negative control, complete RPMI medium with 0.5% DMSO was used. At the end of the macrophage infection assay, the supernatant was stored at −20 °C for the subsequent evaluation of NO production.

Compound | Promastigotes SI J774A.1 [1] | Promastigotes SI VERO [1] | Axenic Amastigotes SI VERO ([2]; SI = CC50 (VERO)/EC50) | Intracellular Amastigotes SI J774A.1 [3] | Intracellular Amastigotes SI VERO [3] | Axenic Amastigotes SI J774A.1 ([2]; SI = CC50 (J774A.1)/EC50)
C[C@@H]1[C@H](O)[C@@H](C)/C=C/C=C/C=C/C=C/C=C/C=C/C=C/[C@H](O[C@@H]2O[C@H](C)[C@@H](O)[C@H](N)[C@@H]2O)C[C@@H]2O[C@](O)(C[C@@H](O)C[C@@H](O)[C@H](O)CC[C@@H](O)C[C@@H](O)CC(=O)O[C@H]1C)C[C@H](O)[C@H]2C(=O)O [Amphotericin B, reference compound] | 1.05 | 0.9 | 360.6 | 1.31 | 1.10 | 
Meglumine antimoniate [reference compound] | 0.76 | 0.80 |  | 30.37 | 32.09 | 1.01
